US8425945B2, “Methods and compositions for regulating biofilm development” (NewSouth Innovations Pty Limited, priority 2005, dated 2013)
Some compounds may have been tested in ways that are not shown here.

Legend:
V. cholerae biofilms = assay: SNP in combination with tetracycline on biofilms; conditions: SNP with tetracycline 6 μg/mL (below the MIC), 24 hours
[1] = system: Staphylococcus epidermidis; assay: Inhibition of biofilm formation on glass slides, SNP added continuously; conditions: concentration-dependent
P. aeruginosa PAO1-GFP = assay: Biofilm formation (crystal violet) and planktonic growth in 96-well plates; conditions: for planktonic growth (fluorescence) / biofilm formation (crystal violet, OD490 nm): 24 hours
[2] = SNP in the micromolar and nanomolar ranges

sodium nitroprusside
antimicrobial activity of tetracycline on biofilms (V. cholerae biofilms): enhances the antimicrobial activity of tetracycline | biofilm formation [1]: can prevent the formation of a biofilm | planktonic growth (fluorescence) (P. aeruginosa PAO1-GFP; 25 mM-100 mM SNP, in comparison to untreated): decrease in planktonic growth | biofilm formation (crystal violet, OD490 nm) (P. aeruginosa PAO1-GFP; 25 mM-100 mM SNP, in comparison to untreated biofilm): increase in biofilm formation | biofilm formation (crystal violet, OD490 nm) (P. aeruginosa PAO1-GFP; [2]): decrease in biofilm formation | planktonic growth (fluorescence) (P. aeruginosa PAO1-GFP; [2]): increase in planktonic growth | SNP concentration giving the highest effect (P. aeruginosa PAO1-GFP; tested 25 nM to 100 mM): 500 nM
